This note sets out measurements from patent publication US20090104178.

Assay [1] has as its target Human CCL25, human, O15444 24-150.
Another assay has as its target hCCL20, Homo sapiens (UniProt P78556).
The next assay has as its target T1, hCCL28, Homo sapiens (UniProt Q9NRJ3).
T1 sequence: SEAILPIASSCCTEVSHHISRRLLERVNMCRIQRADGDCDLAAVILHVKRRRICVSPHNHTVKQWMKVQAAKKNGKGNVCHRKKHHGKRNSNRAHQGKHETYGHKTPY

The next assay deals with T2, hCXCL13, Homo sapiens (UniProt O43927).
T2 sequence: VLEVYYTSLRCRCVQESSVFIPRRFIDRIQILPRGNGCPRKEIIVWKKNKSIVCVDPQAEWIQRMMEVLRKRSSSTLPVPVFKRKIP

A further assay deals with T3, hCXCL14, Homo sapiens (UniProt O95715).
T3 sequence: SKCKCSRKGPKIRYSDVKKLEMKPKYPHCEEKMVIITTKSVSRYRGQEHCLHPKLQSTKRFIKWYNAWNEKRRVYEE

The target in assay [2] is human CXCL12β, human, P48061 22-93.

A word on the Kd: it is a measure of binding affinity in units of concentration. A low value points to tighter binding. For “Purified recombinant full-length VaV CrmB protein”, the Kd in assay [1] is 0.5 nM; with hCCL20, Homo sapiens, 29.2 nM; in the assay with hCCL28, Homo sapiens, 0.39 nM; in the assay with hCXCL13, Homo sapiens, 5.95 nM; in the assay with hCXCL14, Homo sapiens, 6.29 nM; in assay [2], 4.26 nM.
